The target of experiment [1] is hemagglutinin H1 (A/New Caledonia/20/1999) (influenza A virus A/New Caledonia/20/1999 (H1N1)). The experiment is described as follows: BLI (FIG. 4).
Experiment [2] concerns the target hemagglutinin H3 (A/Hong Kong/1/1968-H3N2) (influenza A virus A/Hong Kong/1/1968 (H3N2)) (UniProt Q91MA7). The experiment is described as follows: BLI (Octet), Ni-NTA purified protein. A general note: Biolayer interferometry detects binding as a change in optical thickness at a sensor tip.

B1: Hsc1, monovalent version (designed binder)
chain: GIVNVPNCNTTKYQQLARTAVAIYNYHEQAHLTFVENLNCKEQLGEGDYYYITLAATDDAGKKAIYEAKIGVVESAGWTGVEEFKLV
By Kd is commonly meant the constant that tells how readily two partners part at equilibrium. The low end stands for higher affinity, the high end for lower affinity. In turn, B1 displayed a Kd in experiment [1] of 1120 nM.

B2: HAA.4 fused to 24alt1 (designed binder)
chain: KMEELFKKHKIVAVLRANSVEEAKEKALAVFEGGVHLIEITFTVPDADTVIKELSFLKEKGAIIGAGTVTSVEQCRKAVESGAEFIVSPHLDEEISQFCKEKGVFYMPGVMTPTELVKAMKLGHTILKLFPGQVVGPQFVKAMKGPFPNVKFVPTGGVNLSNVAAWFAAGVLAVGVGSALVKGTPNNVREKAKAFVEAIRGAASGMLAISMDTDKISNSFEDCKYFQLYVLSAGWTNTIFNDESGKEEIVKMSVDAIICKNISEENYKKFSKKIEIYHAEGDDVDKNISLFLEGELSKISNP
In the case of B2, the Kd in experiment [2] was 4.3 nM.

B3: HAA.6 fused to 24solo2 (designed binder)
chain: SKDSPIIEANGTLDELTSFIGEAKHYVDAEMQGILEEIQNDIYKIMGEIGSKGKIEGISEERIKWLEGLISRYEEMVNLKSFVLPGGTLESAKLDVCRTIARRAERKVATVLREFGIGKEALVYLNRLSDLLFLLARVIEIEASGMLAISMDTDKISNSFEDCKYFLIELKSAGWTNTIFNDESGKEEIVKMGVDAIICKNISEENYKKFSKKIEIYHAEGDDVNKNISLFLEGELSKISNP
B3 returned a Kd in experiment [2] of 4.87 nM.

(Values after patent US20170198014A1, “POLYPEPTIDES AND THEIR USE FOR TREATING INFLUENZA” ([…] ITS CENTER FOR COMMERCIALIZATION, priority 2014, published 2017).)
